The series has as its system influenza A/WSN/33 (H1N1)-infected mice. As to the kind of experiment: Effect of influenza infection and i.p. liponucleotide treatment on lung function. The class given is in vivo. The following applies: MOCK (inoculated with virus diluent) mice, day 6; CDP-CHO 100 μg/mouse i.p.

On to `C[N+](C)(C)CCOP(=O)(O)OP(=O)(O)OC[C@H]1O[C@@H](n2ccc(N)nc2=O)C(O)C1O` (some centres unmarked) [CDP-CHO, CDP-choline], for which the “HR (bpm)” value turned out to be 730 ± 10 bpm and the “SaO2 (%)” value is listed as 99.0 ± 0.2%.

The values above are taken from patent publication US11154621B2, “Liponucleotide-based therapy for COPD” (priority 2017, dated 2021).
